Test results: paper PMC5033645 (Nature structural & molecular biology, 2016)

Target: T1, SUMO-gSV2C: glycosylated human SV2C-L4 (V473-T567) with SUMO, secreted from HEK293 cells (human, UniProt Q496J9 473-567)
T1 sequence: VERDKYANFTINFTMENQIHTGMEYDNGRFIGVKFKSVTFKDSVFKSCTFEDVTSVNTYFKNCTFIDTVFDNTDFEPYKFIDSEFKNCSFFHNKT
Assay: SPR

B1: BoNT/A1 receptor-binding domain (HCA), wild type (domain or fragment)
chain: not shown
fold slower association rate of the high affinity component than on bSV2C: ~4 fold
